The IC50 is the concentration needed to halve the response being measured.

Protein sequences, listed by entry. Tags and fused reporters are not part of them. Residues count along the entry.
UniProt P26663, 2420-3010 limits assumed: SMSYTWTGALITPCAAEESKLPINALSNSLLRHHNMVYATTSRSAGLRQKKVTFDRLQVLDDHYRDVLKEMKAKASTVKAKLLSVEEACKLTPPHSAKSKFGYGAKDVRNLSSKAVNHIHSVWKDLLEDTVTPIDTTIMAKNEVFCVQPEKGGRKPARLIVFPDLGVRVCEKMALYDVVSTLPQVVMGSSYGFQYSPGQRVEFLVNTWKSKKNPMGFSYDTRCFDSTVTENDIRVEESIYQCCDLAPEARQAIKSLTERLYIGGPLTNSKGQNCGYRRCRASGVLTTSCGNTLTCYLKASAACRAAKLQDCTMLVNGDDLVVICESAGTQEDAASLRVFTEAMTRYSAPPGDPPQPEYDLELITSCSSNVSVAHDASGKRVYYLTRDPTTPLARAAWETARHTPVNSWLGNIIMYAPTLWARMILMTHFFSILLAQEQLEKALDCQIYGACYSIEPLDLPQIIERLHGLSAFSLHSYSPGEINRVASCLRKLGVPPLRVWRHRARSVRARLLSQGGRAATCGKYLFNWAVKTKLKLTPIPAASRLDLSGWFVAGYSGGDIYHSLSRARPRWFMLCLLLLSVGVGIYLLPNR

This is a selection: effects in other tests are not listed, and their absence says nothing.

The record followed here is patent US8829030B2 (priority 2002, dated 2014).

The test deals with recombinant HCV RNA-dependent RNA polymerase (NS5B protein) (Hepatitis C virus genotype 1b, UniProt P26663). In words: In vitro HCV RdRp Flashplate scintillation proximity assay (STREP-FLASH ASSAY). Particulars: read-out: Activity (polymerase activity, IC50); 100 nM recombinant HCV NS5B, 25 μM UTP, polyrA/biotinylated-oligo dT, 2 hrs at room temperature. It counts as biochemical, HCV-Bk strain. On the technique in general: In a scintillation proximity assay essentially only radioactivity close to the scintillant gives light.
With `CN1CCC(N(c2cc(-c3ccccc3)sc2C(=O)O)C(=O)[C@H]2CC[C@H](C)CC2)CC1`, the IC50 was less than 5 µM.
For `CC1CCC(C(=O)N(c2cc(-c3ccccc3)sc2C(=O)O)C2CC[N+](C)([O-])CC2)CC1` (stereo not drawn), the half-maximal inhibitory concentration (IC50) is less than 5 µM.
On to `COc1ccc(-c2cc(N(C(=O)C3CCC(C)CC3)C3CCN(C)CC3)c(C(=O)O)s2)cc1` (stereo not drawn), for which the IC50 was less than 5 µM.
To `CC1CCC(C(=O)N(c2cc(-c3ccccc3)sc2C(=O)O)C2CCN(C(C)C)CC2)CC1` (stereo not drawn) belongs less than 5 µM; to `CC1CCC(C(=O)N(c2cc(-c3ccccc3)sc2C(=O)O)C2CCN(Cc3ccccc3)CC2)CC1` (stereo not drawn), less than 5 µM; to `CC1CCC(C(=O)N(c2cc(-c3ccc(F)cc3)sc2C(=O)O)C2CCN(C)CC2)CC1` (stereo not drawn), less than 5 µM.
On to `CC1CCC(C(=O)N(c2cc(-c3ccc(Cl)cc3)sc2C(=O)O)C2CCN(C)CC2)CC1` (stereo not drawn), for which the IC50 was less than 5 µM.
For the molecule `Cc1ccc(-c2cc(N(C(=O)C3CCC(C)CC3)C3CC[NH+](C)CC3)c(C(=O)O)s2)cc1` (stereo not drawn), the IC50 was less than 5 µM.
In the case of `CC1CCC(C(=O)N(c2cc(-c3ccc([N+](=O)[O-])cc3)sc2C(=O)O)C2CCN(C)CC2)CC1` (stereo not drawn), the IC50 was less than 5 µM.
With `CCN1CCC(N(C(=O)C2CCC(C)CC2)c2cc(-c3ccccc3)sc2C(=O)O)CC1` (stereo not drawn), the IC50 was less than 5 µM.
As for `CC1CCC(C(=O)N(c2cc(-c3ccc(C#N)cc3)sc2C(=O)O)C2CCN(C)CC2)CC1` (stereo not drawn), the IC50 was less than 5 µM.
Regarding `CC1CCC(C(=O)N(c2cc(-c3cccc(F)c3)sc2C(=O)O)C2CCN(C)CC2)CC1` (stereo not drawn), the IC50 is less than 5 µM.
